A mixed list of measured activities; the numbers were collected in NIAID ChemDB.

All rows: cytotoxicity tests; cell line: MDCK; endpoint: CC50

Conditions beyond the fields shown may differ between rows. a–b is a range or a potency band. CCn is the concentration with n% toxicity to the cells.

smiles	value
CC#Cc1cn([C@@H]2O[C@H](COP(=O)(O)OCC(F)(F)F)[C@@H](O)[C@@H]2O)c(=O)[nH]c1=O	>250 µM
CC(N)C12CC3CC(CC(C3)C1)C2	10–4000 µM
CCCN(CCC)c1c([N+](=O)[O-])cc(C(F)(F)F)cc1[N+](=O)[O-]	>5 µM
CC#Cc1cn([C@@H]2O[C@H](COP(=O)(O)OCC)[C@@H](O)[C@@H]2O)c(=O)[nH]c1=O	>250 µM
NC(=O)c1nc(F)c[nH]c1=O	>6370 µM
O=C(NCCc1c[nH]c2ccccc12)C1=Cc2ccncc2CC1	46 µM
Nc1ccn([C@@H]2C[C@@H](O)[C@H](CO)O2)c(=O)n1	>100 µM
CC(N)C12CC3CC(CC(C3)C1)C2	1160 µM
CC#Cc1cn([C@@H]2O[C@H](CO)[C@@H](O)[C@@H]2O)c(=O)[nH]c1=O	>500 µM
CO[C@@H]1[C@@H](OC)[C@H](C)[C@@](O)(CC(=O)O)O[C@H]1[C@H](C)[C@H]1O[C@@]2(CC[C@@](C)([C@H]3CC[C@@](C)([C@@H]4O[C@@H]([C@H]5O[C@](C)(O)[C@H](C)C[C@@H]5C)C[C@@H]4O[C@@H]4C[C@H](OC)[C@@H](OC)[C@H](C)O4)O3)O2)C[C@H](O)[C@H]1C	>10 µM
CC#Cc1cn([C@@H]2O[C@H](COP(=O)(O)Oc3ccccc3)[C@@H](O)[C@@H]2O)c(=O)[nH]c1=O	>500 µM
Nc1ccn([C@@H]2C[C@@H](O)[C@H](CO)O2)c(=O)n1	>100 µM
CC#Cc1cn([C@@H]2O[C@H](COP(=O)(O)Oc3cccc(Cl)c3)[C@@H](O)[C@@H]2O)c(=O)[nH]c1=O	79 µM
NC(=O)c1nc(F)c[nH]c1=O	>1000 µg/mL
COc1cc(O)c(CC=C(C)C)c2c1C(=O)CC(c1ccc(O)cc1)O2	25 µg/mL

Repeating the final 2 entries:

smiles,value
NC(=O)c1nc(F)c[nH]c1=O,>1000 µg/mL
COc1cc(O)c(CC=C(C)C)c2c1C(=O)CC(c1ccc(O)cc1)O2,25 µg/mL